Anti-infective test results gathered from many reports (values: NIAID ChemDB through PubChem).

All rows: whole-cell or culture tests; organism: Candida albicans; endpoint: MIC

An empty or dashed field is not shown. Conditions beyond the fields shown may differ between rows.

structure | setting | strain | result
Fc1ccc(C2CC(c3cccs3)=NN2c2nc(-c3ccc(Cl)cc3)cs2)cc1 |  | Clinical isolates | 125 µg/mL
CCC(O)(C#Cc1c(C)nc(N)nc1N)CC |  |  | 12.5 µg/mL
CC(C)(C)n1ncc(C#N)c1/N=c1\ssnc1Cl |  | ATCC 10231 | 25 µg/mL
Oc1c(-c2ccc(Cl)cc2Cl)nc2ncccn12 |  | A | >125 µg/mL
CCCCCCCCON1CCN(c2ccc(-c3ccc(C(=O)N[C@H]4CCCNC(=O)C5C[C@H](N)CN5C(=O)C(C(C)O)NC(=O)C(CCc5ccc(O)cc5)NC(=O)C5C[C@@H](O)CN5C(=O)C(C(C)O)NC4=O)cc3)cc2)CC1 |  | ATCC CCH442 | 0.2 µg/mL
CC1=NN(c2nnc3c(n2)Nc2ccccc2N3)C(=O)C1 |  | ATCC 2091 | 200 µg/mL
C=CC(C)(C)c1[nH]c2ccccc2c1/C=C1\NC(=O)[C@@H]2CCCN2C1=O |  | SC5314 | >100 µg/mL
CCCCCOc1ccc(-c2ccc(-c3ccc(C(=O)N[C@H]4CCCNC(=O)C5C[C@H](NC(=O)CC)CN5C(=O)C(C(C)O)NC(=O)C(CCc5ccc(O)cc5)NC(=O)C5C[C@@H](O)CN5C(=O)C(C(C)O)NC4=O)cc3)cc2)cc1 |  | ATCC 10231 | 0.39 µg/mL
O=C(NCCNCc1ccc(-c2ccccc2)cc1)c1ccc2nc(NC(=O)C3CCCCC3)sc2c1 |  |  | >8 µM
COC1=NC(C)CC(=O)N1 |  |  | >100 µg/mL
CCCCCCCCOC(=O)/C=C/c1ccccc1 |  |  | 0.002 µg/mL
CC(=O)c1cccc(-c2nc3ccccn3c2O)c1 |  | A | >125 µg/mL
CN[C@@H]1[C@H](O[C@@H]2OC[C@@H](O)[C@H](O)[C@H]2O)[C@@H](O)[C@H](O[C@H]2c3cc(C)c(C(=O)N[C@H](C)C(=O)O)c(O)c3-c3c(cc4c(c3O)C(=O)c3cc(OC)c(C(=O)O)c(O)c3C4=O)[C@@H]2O)O[C@@H]1C |  | A9540 | >100 µg/mL
Cc1c(NC(=O)CSc2nnc(-c3ccco3)n2-c2ccccc2)c(=O)n(-c2ccccc2)n1C |  | ATCC 10231 | 16 µg/mL
COc1ccc(-c2nc3ncccn3c2O)cc1 |  | A | >125 µg/mL
CCCCNC(=O)/C=C/c1ccccc1 |  |  | 0.002 µg/mL
CC1(C)C2CC3OB(C[C@@H](Cc4ccccc4)NC(=O)[C@@H](N)CCCN=C(N)N)O[C@]3(C)C1C2 |  |  | ≤500 µg/mL
O=C(Nc1nc2ccc(NC(=O)[C@H]3CCC[C@@H](NCc4ccc5ccccc5c4)C3)cc2s1)C1CCCC1 |  |  | 3.13 µM
Cc1ccc2sn(NS(=O)(=O)c3ccc(N)cc3)c(=O)c2c1 |  | ATCC 10231 | >100 µg/mL
Cc1c(O)cccc1C(=O)N[C@@H](CSc1ccccc1)[C@H](O)CN1C[C@H]2CCCC[C@H]2C[C@H]1C(=O)NC(C)(C)C |  | I167A | 8 µg/mL
COc1ccc(C=NC2C3CC4CC(C3)CC2C4)c(Cl)c1OC |  |  | 64 µg/mL
Cc1c(NC(=O)CSc2nnc(-c3ccco3)n2C)c(=O)n(-c2ccccc2)n1C |  | ATCC 10231 | 16 µg/mL
N#Cc1ncn(CCc2ccccc2)c1/N=c1\ssnc1Cl |  | ATCC 10231 | 25 µg/mL
C[C@@H](B1OC2CC3CC(C3(C)C)[C@@]2(C)O1)[C@@H](Cc1ccccc1)NC(=O)[C@@H]1CCCN1 |  |  | ≤500 µg/mL
O=[N+]([O-])c1ccc(-c2nc3ncccn3c2O)cc1 |  | A | >125 µg/mL
Cc1c(NC(=O)C(C)Sc2nnc(-c3ccco3)n2-c2ccccc2)c(=O)n(-c2ccccc2)n1C |  | ATCC 10231 | 16 µg/mL
NNC(=O)Cc1nnc2n1-c1nc3ccccc3nc1NN2 |  | ATCC 2091 | 200 µg/mL
O=C(Nc1nc2ccc(NC(=O)[C@@H]3CCC[C@@H](NCc4ccc5ccccc5c4)C3)cc2s1)C1CCCCC1 |  |  | 3.13 µM
C[C@@H](c1ncncc1F)[C@](O)(Cn1cncn1)c1ccc(F)cc1F |  | Isolate 2-76 | 0.06 µg/mL
NC(=S)CSc1ccnc(C(N)=S)c1 |  | 44859 | 500 µM
O=S(=O)(NC(=S)Nc1ccccc1)c1ccc(N2N=C(c3ccc(Cl)cc3)CC2c2ccccc2)cc1 |  | ATCC 2091 | 50 µg/mL
NC(=S)CSc1cc(C(N)=S)ccn1 |  | 44859 | 1000 µM
C[C@@H](B1OC2CC3CC(C3(C)C)[C@@]2(C)O1)[C@@H](Cc1ccccc1)NC(=O)C(N)Cc1ccccc1 |  |  | ≤500 µg/mL
CC(C)=CCc1c(O)c(C)c2c(c1O)C(=O)C[C@@H](c1ccc(O)cc1)O2 |  |  | 100 µg/mL
CC(C)=C(CCc1ccc2c(c1)C(=O)C=CC2=O)C(C)CCCO |  |  | 3 µg/mL
CCCCCCCCN[C@H]1C[C@H]2C(=O)NCCC[C@H](NC(=O)c3ccc(-c4ccc(-c5ccc(OCCCCC)cc5)cc4)cc3)C(=O)N[C@@H]([C@@H](C)O)C(=O)N3C[C@H](O)C[C@H]3C(=O)N[C@@H](CCc3ccc(O)cc3)C(=O)N[C@@H]([C@@H](C)O)C(=O)N2C1 |  | ATCC 62376 | 6.25 µg/mL
O=C(Nc1nc2ccc(NC(=O)[C@@H]3CCC[C@@H](NCc4ccc(-c5ccccc5)cc4)C3)cc2s1)C1CCCC1 |  |  | >12.5 µM
Oc1c(-c2ccccc2)nc2ccccn12 |  | A | >125 µg/mL
S=c1nc2c(n[nH]1)Cc1ccccc1N2 |  | ATCC 2091 | 50 µg/mL
NNC(=O)/C=C/c1ccccc1 |  |  | 0.003 µg/mL
Cc1ccccc1Cn1nnc(C#N)c1/N=c1\ssnc1Cl |  | ATCC 10231 | 50 µg/mL
COc1ccc(C=NC23CC4CC(CC(C4)C2)C3)cc1OC |  |  | 128 µg/mL
CCCCCOc1ccc(-c2ccc(-c3ccc(C(=O)N[C@H]4CCCNC(=O)C5C[C@H](N)CN5C(=O)C(C)NC(=O)C(CCc5ccc(O)cc5)NC(=O)C5C[C@@H](O)CN5C(=O)C(C(C)O)NC4=O)cc3)cc2)cc1 |  | ATCC 10231 | 0.2 µg/mL
O=C(O)/C(Br)=C(\Br)c1ccccc1 |  |  | 0.001 µg/mL
CCSc1ssc(=S)c1Cl |  | ATCC 10231 | 250 µg/mL
CCCCCCCCOc1ccc(N2CCN(c3ccc(C(=O)N[C@H]4CCCNC(=O)C5C[C@H](N)CN5C(=O)C(C(C)O)NC(=O)C(OCc5ccncc5)NC(=O)C5CCCN5C(=O)C(C(C)O)NC4=O)cc3)CC2)cc1 |  | ATCC CCH442 | 3.12 µg/mL
N#Cc1ncn(CCc2ccc(Cl)cc2Cl)c1/N=c1\ssnc1Cl |  | ATCC 10231 | 25 µg/mL
COc1ccc(-c2csc(N3N=C(c4cccs4)CC3c3ccc4c(c3)OCO4)n2)cc1 |  | Clinical isolates | 250 µg/mL
CC(N1CCN(c2ccc(-n3cnn(Cc4ccc(OC(F)(F)F)cc4)c3=O)cc2F)CC1)C(O)(Cn1cncn1)c1ccc(F)cc1F |  | Y0109 | <0.048 µg/mL
CCCCCCCCOc1ccc(C(=O)NC2C[C@@H](O)[C@@H](O)NC(=O)C3[C@@H](O)[C@@H](C)CN3C(=O)C(C(C)O)NC(=O)C([C@H](O)[C@@H](O)c3ccc(O)cc3)NC(=O)C3C[C@@H](O)CN3C(=O)C(C(C)O)NC2=O)cc1 |  | Isolate 5 | 0.6 µg/mL
Clc1ccccc1C(c1ccccc1)(c1ccccc1)n1ccnc1 |  | ATCC 2091 | 12.5 µg/mL
CCCCCCCCOc1ccc(N2CCN(c3ccc(C(=O)N[C@H]4CCCNC(=O)C5C[C@H](N)CN5C(=O)C(C(C)O)NC(=O)C(c5ccc(CO)cc5)NC(=O)C5CCCN5C(=O)C(C(C)O)NC4=O)cc3)CC2)cc1 |  | ATCC 10231 | 50 µg/mL
Clc1ccc(-c2csc(N3N=C(c4cccs4)CC3c3ccccc3)n2)cc1 |  | Clinical isolates | 125 µg/mL
COc1cc2c(c(O)c1C)C(=O)c1cc3c(c(O)c1C2=O)-c1c(cc(C)c(C(=O)NC(C)C(=O)O)c1OC)[C@H](OC1OC(C)C(N(C)C)C(OC2OCC(O)C(O)C2O)C1O)[C@H]3O |  | A9540 | >100 µg/mL
N#Cc1cnn(CCCc2ccccc2)c1/N=c1\ssnc1Cl |  | ATCC 10231 | 25 µg/mL
Cc1ccc(-c2csc(N3N=C(c4cccs4)CC3c3ccc(F)cc3)n2)cc1 |  | Clinical isolates | 125 µg/mL
Cc1nc(N)nc(N)c1C#CC(C)C |  |  | 0.8 µg/mL
C#CC#CC(=O)c1ccccc1C(=O)O |  | UMRU204 | 40 µg/mL
Clc1ccccc1C(c1ccccc1)(c1ccccc1)n1ccnc1 | 24 h | Clinical isolates | 2 µg/mL
CCSSc1ssc(=S)c1-c1ccccc1 |  | ATCC 10231 | 62.5 µg/mL
CCCCCOc1ccc(-c2ccc(-c3ccc(C(=O)N[C@H]4CCCNC(=O)C5CCN5C(=O)C(C(C)O)NC(=O)C(CCc5ccc(O)cc5)NC(=O)C5C[C@@H](O)CN5C(=O)C(C(C)O)NC4=O)cc3)cc2)cc1 |  | ATCC CCH442 | 0.78 µg/mL
Cc1c(NC(=O)CSc2nnc(-c3ccco3)n2-c2ccc(Br)cc2)c(=O)n(-c2ccccc2)n1C |  | ATCC 10231 | 16 µg/mL
CC(C)(C)CSc1cc(=S)ss1 |  | Clinical isolate 00-622 | 8 µg/mL
CC1(C)C2CC3OB(C[C@@H](Cc4ccccc4)NC(=O)[C@@H](N)Cc4ccccc4)O[C@]3(C)C1C2 |  |  | ≤500 µg/mL
CCSSc1ssc(=S)c1OC |  | Clinical isolate 00-622 | <0.13 µg/mL
C=CC(C)(C)c1[nH]c2ccccc2c1C[C@@H]1NC(=O)[C@@H]2CCCN2C1=O |  | SC5314 | >100 µg/mL
Cc1cc2c3c(N)nc(N)nc3ccc2n1C |  |  | 1.6 µg/mL
O=C(Nc1nc2ccc(NC(=O)[C@@H]3CC[C@H](NCc4ccc5ccccc5c4)C3)cc2s1)C1CCCC1 |  |  | 6.25 µM
Clc1ccc(-c2csc(N3N=C(c4cccs4)CC3c3ccc4c(c3)OCO4)n2)cc1 |  | Clinical isolates | 250 µg/mL
NC(=S)c1cc(N2CCCCC2)ccn1 |  | 44859 | 250 µM
Cc1nc(N)nc(N)c1C#Cc1ccccc1 |  |  | 0.4 µg/mL
C[C@@H](B1OC2CC3CC(C3(C)C)[C@@]2(C)O1)[C@@H](Cc1ccccc1)NC(=O)[C@H](Cc1ccccc1)NC(=O)[C@@H](N)CCCCN |  |  | ≤500 µg/mL
CC(N1CCN(c2ccc(-n3cnn(Cc4ccc(C(F)(F)F)cc4)c3=O)cc2)CC1)C(O)(Cn1cncn1)c1ccc(F)cc1F |  | Y0109 | <0.048 µg/mL
CC1(C)C2CC3OB(C[C@@H](CCc4ccccc4)NC(=O)[C@@H](N)CCCCN)O[C@]3(C)C1C2 |  |  | ≤500 µg/mL
CN[C@@H]1[C@H](O[C@@H]2OC[C@@H](O)[C@H](O)[C@H]2O)[C@@H](O)[C@H](O[C@H]2c3c(c(O)c(C(=O)N[C@H](C)C(=O)O)c(C)c3[N+](=O)[O-])-c3c(cc4c(c3O)C(=O)c3cc(OC)cc(O)c3C4=O)[C@@H]2O)O[C@@H]1C |  | A9540 | >100 µg/mL

Again, the opening 9 rows:

structure	setting	strain	result
Fc1ccc(C2CC(c3cccs3)=NN2c2nc(-c3ccc(Cl)cc3)cs2)cc1		Clinical isolates	125 µg/mL
CCC(O)(C#Cc1c(C)nc(N)nc1N)CC			12.5 µg/mL
CC(C)(C)n1ncc(C#N)c1/N=c1\ssnc1Cl		ATCC 10231	25 µg/mL
Oc1c(-c2ccc(Cl)cc2Cl)nc2ncccn12		A	>125 µg/mL
CCCCCCCCON1CCN(c2ccc(-c3ccc(C(=O)N[C@H]4CCCNC(=O)C5C[C@H](N)CN5C(=O)C(C(C)O)NC(=O)C(CCc5ccc(O)cc5)NC(=O)C5C[C@@H](O)CN5C(=O)C(C(C)O)NC4=O)cc3)cc2)CC1		ATCC CCH442	0.2 µg/mL
CC1=NN(c2nnc3c(n2)Nc2ccccc2N3)C(=O)C1		ATCC 2091	200 µg/mL
C=CC(C)(C)c1[nH]c2ccccc2c1/C=C1\NC(=O)[C@@H]2CCCN2C1=O		SC5314	>100 µg/mL
CCCCCOc1ccc(-c2ccc(-c3ccc(C(=O)N[C@H]4CCCNC(=O)C5C[C@H](NC(=O)CC)CN5C(=O)C(C(C)O)NC(=O)C(CCc5ccc(O)cc5)NC(=O)C5C[C@@H](O)CN5C(=O)C(C(C)O)NC4=O)cc3)cc2)cc1		ATCC 10231	0.39 µg/mL
O=C(NCCNCc1ccc(-c2ccccc2)cc1)c1ccc2nc(NC(=O)C3CCCCC3)sc2c1			>8 µM